Data from publication PMC6271933, “Evaluation of the Toxicity of 5-Aryl-2-Aminoimidazole-Based Biofilm Inhibitors against Eukaryotic Cell Lines, Bone Cells and the Nematode Caenorhabditis elegans” (Molecules, 2014).
Some compounds share one wording; it may come from a single statement.

How the values were obtained:
Format in all cases: cell-based
L1210, CEM and HeLa = test: Cytostatic activity against tumor cell lines, statements over all cell lines; conditions: for TI / safety window with respect to Salmonella biofilm inhibition, all cell lines: IC50 / BIC50 Salmonella; for TI with respect to Salmonella and/or Pseudomonas biofilm inhibition: IC50 / BIC50, both bacterial species
human T-lymphocyte (CEM) = test: Cytostatic activity against tumor cell lines (cell number by Coulter counter); conditions: for TI P. aeruginosa CEM: ratio IC50 (CEM) / BIC50 (P. aeruginosa); for TI S. Typhimurium CEM: ratio IC50 (CEM) / BIC50 (S. Typhimurium)
Description: (§1) The IC50 was defined as the compound concentration required to inhibit cell proliferation by 50%. The therapeutic index (TI) was calculated as the ratio of the compound concentration producing toxicity (IC50) to the concentration needed to exert the desired ‘therapeutic’ effect on biofilms of Salmonella and Pseudomonas, indicated by the BIC50 (dose needed to prevent biofilm formation by 50%). The higher the therapeutic index, the broader the safety window of the compound.
(§2) Murine leukemia (L1210), human T-lymphocyte (CEM) and human cervix carcinoma (HeLa) were suspended at 300,000–500,000 cells/mL of culture medium, and 100 µL of a cell suspension was added to 100 µL of an appropriate dilution of the test compounds in 200 µL-wells of 96-well microtiter plates. After incubation at 37 °C for two (L1210), three (CEM) or four (HeLa) days, the cell number was determined using a Coulter counter. The IC50 was defined as the compound concentration required to inhibit cell proliferation by 50%.

[1] = test system: human cervix carcinoma (HeLa); test: as above; conditions: for TI P. aeruginosa HeLa: ratio IC50 (HeLa) / BIC50 (P. aeruginosa); for TI S. Typhimurium HeLa: ratio IC50 (HeLa) / BIC50 (S. Typhimurium)
Description: as §1, §2

murine leukemia (L1210) = test: as above; conditions: for TI P. aeruginosa L1210: ratio IC50 (L1210) / BIC50 (P. aeruginosa); for TI S. Typhimurium L1210: ratio IC50 (L1210) / BIC50 (S. Typhimurium)
Description: as §1, §2

SMILES	TI / safety window with respect to Salmonella biofilm inhibition, all cell lines (L1210, CEM and HeLa)	TI P. aeruginosa CEM (human T-lymphocyte (CEM))	TI S. Typhimurium CEM (human T-lymphocyte (CEM))	TI P. aeruginosa HeLa [1]	TI S. Typhimurium HeLa [1]	TI P. aeruginosa L1210 (murine leukemia (L1210))	TI S. Typhimurium L1210 (murine leukemia (L1210))	TI with respect to Salmonella and/or Pseudomonas biofilm inhibition (L1210, CEM and HeLa)
Nc1ncc(-c2ccccc2)[nH]1 [compound 1]	toxic at concentrations overlapping with the Salmonella biofilm inhibitory concentrations	–	–	–	–	–	–	–
Nc1ncc(-c2ccc(-c3ccccc3)cc2)[nH]1 [compound 3]	toxic at concentrations overlapping with the Salmonella biofilm inhibitory concentrations	1.6	0.8	4.0	2.0	4.3	2.2	–
Nc1ncc(-c2ccc(Br)cc2)[nH]1 [compound 5, 5-(p-bromophenyl)-2-aminoimidazole]	toxic at concentrations overlapping with the Salmonella biofilm inhibitory concentrations	–	–	–	–	–	–	–
CCCCCCCCn1c(-c2ccccc2)cnc1N [compound 6]	–	25.3	39.3	0.2	0.3	0.2	0.3	–
CCCCCCCCn1c(-c2ccc(Cl)cc2)cnc1N [compound 7]	–	89.2	60.5	1.1	0.8	1.0	0.7	–
CCCCCCCCCCCCCn1c(-c2ccc(Cl)cc2)cnc1N [compound 8]	–	0.2	0.3	0.1	0.2	0.2	0.4	–
CCCCCCCn1c(-c2ccc(-c3ccccc3)cc2)cnc1N [compound 9]	–	0.3	0.9	0.3	0.9	0.3	0.8	–
CCCCCCCCn1c(-c2ccc(-c3ccccc3)cc2)cnc1N [compound 10]	–	0.9	2.5	0.7	2.0	0.9	2.4	–
Nc1ncc(-c2ccc(-c3ccccc3)cc2)n1C1CCCC1 [compound 11]	–	0.01	0.4	0.02	1.1	0.01	0.6	–
Nc1ncc(-c2ccc(-c3ccccc3)cc2)n1C1CCCCCC1 [compound 12]	–	0.8	0.4	1.0	0.5	1.2	0.6	–
Nc1ncc(-c2ccc(-c3ccccc3)cc2)n1C1CCCCCCC1 [compound 13]	–	1.5	0.2	2.2	0.3	2.2	0.3	–
CCCCCCCCn1c(-c2ccc(F)cc2)cnc1N [compound 14]	–	1.5	0.7	1.8	0.8	0.7	0.3	–
CCCCCCCCn1c(-c2ccc(SC)cc2)cnc1N [compound 15, N1-octyl-5-[4-SMePh]-2AI]	–	2.6	1.1	2.3	0.9	1.5	0.6	–
CCCCCCCCn1c(-c2cccc(Br)c2)cnc1N [compound 16]	–	0.2	0.9	0.2	0.7	0.2	0.6	–
COc1cccc(CCn2c(-c3ccc(Cl)c(Cl)c3)cnc2N)c1 [compound 17]	–	–	<0.02	–	<0.02	–	<0.02	–
CCCCNc1ncc(-c2ccccc2)[nH]1 [compound 18]	–	21.0	26.4	0.6	0.8	1.5	1.8	–
CC(C)CNc1ncc(-c2ccccc2)[nH]1 [compound 19]	–	318.9	78.1	76.2	18.7	69.7	17.1	–
c1ccc(-c2cnc(NC3CCCC3)[nH]2)cc1 [compound 20]	–	–	–	–	–	–	–	below 1
CCCCCNc1ncc(-c2ccc(Cl)cc2)[nH]1 [compound 23]	–	51.3	<0.8	3.1	<0.05	3.5	<0.05	below 1
CC(C)CNc1ncc(-c2ccc(Br)cc2)[nH]1 [compound 26]	–	255.0	105.5	18.8	7.8	26.4	10.9	–
CCCCCNc1ncc(-c2ccc(Br)cc2)[nH]1 [compound 27]	–	36.8	121.0	1.6	5.2	1.5	4.8	–
Brc1ccc(-c2cnc(NC3CCCC3)[nH]2)cc1 [compound 28]	–	93.6	55.7	4.5	2.7	4.5	2.7	–
Clc1ccc(-c2cnc(NC3CCCC3)[nH]2)cc1Cl [compound 29]	–	19.7	27.4	10.1	14.0	9.6	13.4	–
COc1ccc(-c2nc(N)[nH]c2-c2ccccc2)cc1 [compound 30]	–	–	0.7	–	0.6	–	0.8	–
Nc1nc(-c2ccc(Cl)cc2)c(-c2ccccc2)[nH]1 [compound 31]	–	–	1.0	–	0.9	–	1.3	–
Cc1ccc(-c2nc(N)[nH]c2-c2ccc(Cl)cc2)cc1 [compound 32]	–	–	0.8	–	0.7	–	1.0	–
Nc1nc(-c2ccc(C(F)(F)F)cc2)c(-c2ccc(Cl)cc2)[nH]1 [compound 33]	–	–	3.3	–	2.4	–	3.8	–
CCCCCOc1ccc(Cc2nc(N)n(Cc3ccccc3)c2-c2ccc(C)cc2)cc1 [compound 35]	–	0.3	0.8	0.5	1.4	0.3	0.8	below 1
COc1ccc(-c2cnc(NCCCn3cc(-c4ccc(Br)cc4)nn3)[nH]2)cc1 [compound 38]	–	–	6.5	–	0.2	–	0.2	–
Brc1ccc(-c2cnc(NCCCn3cc(C4CC4)nn3)[nH]2)cc1 [compound 40]	higher than 16	–	–	–	–	–	–	–
